In paper PMC9841593 (ACS Medicinal Chemistry Letters, 2022):

Biological target: influenza PAN endonuclease (Influenza A virus, UniProt C3W5S0, DEL52-64/INS51G)
Test: PAN endonuclease fluorescence-quenching (FRET) nuclease activity assay
Type: biochemical, influenza A/California/04/2009(H1N1)
Conditions: for LE (ligand efficiency): 1.4(pIC50)/HAC; for LLE (lipophilic ligand efficiency): method of Nat. Rev. Drug Discovery 2014, 13, 105-121

O=C(O)c1[nH]c(Br)cc(=O)c1O [Compound 2]
LE (ligand efficiency): 0.83
LLE (lipophilic ligand efficiency): 6.32

NC(=O)c1[nH]c(Br)cc(=O)c1O [Compound 3]
LE (ligand efficiency): 0.82
LLE (lipophilic ligand efficiency): 6.23

CONC(=O)c1[nH]c(Br)cc(=O)c1O [Compound 5]
LE (ligand efficiency): 0.65
LLE (lipophilic ligand efficiency): 5.84
